Assay results reported in patent US9907860B2, “Conjugated molecules comprising a peptide derived from the CD4 receptor coupled to an anionic polypeptide for the treatment of AIDS” (INSTITUT PASTEUR, priority 2014, dated 2018).

Columns and labels:
[1] = Cytotoxic activity, WST-1 cell proliferation assay; assay type: cell-based; conditions: human; WST-1, 48 h
Protocol: Cytotoxicity was determined using the water-soluble tetrazolium-1 (WST-1) cell proliferation assay, which is based on the cleavage of the tetrazolium salt WST-1 to a formazan dye by cellular dehydrogenases. Because this bioreduction is dependent on the glycolytic production of NAD(P)H in viable cells, the amount of formazan dye formed is correlated directly to the number of viable cells in a culture. Quantification is performed by measuring absorbance at 450 nm in a multiwell plate reader. An amount of 10^4 cells was plated per well in a 96-well plate, and a serial dilution of compound was added. Forty eight hours later, cell proliferation reagent was added and cell viability was measured compared to untreated control cultures. Cell viability was plotted against the compound concentration, and nonlinear regression analysis was performed to evaluate the 50% cytotoxic concentration (CC50).
The miniCD4 conjugates were then evaluated for their cytotoxic activity according to the protocol described above. All cytotoxic results are reported in the table below in the form of CC50 values (nM).

[2] = system: HIV-1 NL4-3 (X4) in primary CD4+ T cells; experiment: Viral cell-to-cell transmission assay, HIV-1 NL4-3; assay type: cell-based; conditions: X4 virus HIV-1 NL4-3, primary CD4+ T cells, intracellular Gag
Protocol: (§1) Primary CD4+ T cells were purified from human peripheral blood by positive selection (Miltenyi). About 98% of cells were CD4+CD3+. For activation, primary T cells were treated with phytohemagglutinin (PHA) (1 μg/ml) for 24 h and then cultured with interleukin 2 (IL-2) (50 IU/ml) for 3-5 days before use. Primary cells were infected with HIV-1 NL4-3 and NLAD8 as described in Lepelley et al. PLoS Pathog 2011, 7:e1001284 and Malbec et al. J Exp Med 2013, 210:2813-2821. Donor cells were used a few days later, when about 20% of the cells were Gag+. Target cells were labeled with FarRed (2.5 μM; Molecular Probes). Donors were preincubated 1 h with the indicated doses of compounds. Donor and target cells were then mixed at a 1:2 ratio in 96-well plates at a final concentration of 1.5×10^6/ml in 200 μl, in duplicates. After 48, 72 or 96 h, cells were stained for intracellular Gag (KC57 mAb, Coulter) and analyzed by flow cytometry. When stated, Nevirapine (NVP; 12.5 nM) or the NIH45-46 broadly neutralizing antibody (bNAb) (Malbec et al. J Exp Med 2013, 210:2813-2821) was added 1 h before coculture.
(§2) mCD4.1, mCD4.2, mCD4.3 and their PS1 conjugates, as well as Nevirapine and NIH45-46, were evaluated for their capacity to inhibit cell-cell HIV transmission. This was performed using primary cells infected with R5 (HIV1-NLAD8) and X4 (HIV1-NL4-3) viruses.

[3] = system: HIV-1 NLAD8 (R5) in primary CD4+ T cells; experiment: Viral cell-to-cell transmission assay, HIV-1 NLAD8; assay type: cell-based; conditions: R5 virus HIV-1 NLAD8, primary CD4+ T cells, intracellular Gag
Protocol: as §1, §2

IIIB viral strain (B-X4) = assay type: cell-based, HIV; conditions: TZM-bl cells, luciferase, 48 h; clade-tropism B-X4
Protocol: (§3) The antiviral activity of the tested compounds was determined by pre-incubating 10^4 TZM-bl cells/well in a 96-well plate for 30 min at 37° C. and 5% CO2 with or without a serial dilution of the compound. Next, 200 TCID50 of viruses were added to each well and cultures were incubated for 48 h before luciferase activity was quantified. Each compound was tested in triplicate in a single experiment. Antiviral activity was expressed as the percentage of viral inhibition compared to the untreated control and plotted against the compound concentration. Next, non-linear regression analysis was used to calculate the 50% effective concentration (EC50).
(§4) The miniCD4 conjugates were then evaluated for their antiviral activity on TZM-bl cells that express Luciferase under the control of the HIV LTR (collaboration G. Vanham, Anvers) according to the protocol described above. All antiviral results are reported in the table below in the form of EC50 values (nM).

[4] = system: Ca10-3 (CRF01) viral strain (AE-X4); assay type: cell-based, HIV; conditions: TZM-bl cells, luciferase, 48 h; clade-tropism AE-X4
Protocol: as §3, §4

MN viral strain (B-X4) = assay type: cell-based, HIV; conditions: TZM-bl cells, luciferase, 48 h; clade-tropism B-X4
Protocol: as §3, §4

[5] = system: MP568 (CRF02) viral strain (AG-R5); assay type: cell-based, HIV; conditions: TZM-bl cells, luciferase, 48 h; clade-tropism AG-R5
Protocol: as §3, §4

[6] = system: SF162 viral strain (B-R5); assay type: cell-based, HIV; conditions: TZM-bl cells, luciferase, 48 h; clade-tropism B-R5; read-out: EC50, viral strain SF162
Protocol: as §3, §4

[7] = system: VI829 viral strain (C-R5); assay type: cell-based, HIV; conditions: TZM-bl cells, luciferase, 48 h; clade-tropism C-R5
Protocol: as §3, §4

[8] = system: VI824 viral strain (D-R5); assay type: cell-based, HIV; conditions: TZM-bl cells, luciferase, 48 h; clade-tropism D-R5
Protocol: as §3, §4

Bal viral strain (B-R5) = assay type: cell-based, HIV; conditions: TZM-bl cells, luciferase, 48 h; clade-tropism B-R5; read-out: EC50, viral strain Bal
Protocol: as §3, §4

[9] = system: VI1888 (CRF01) viral strain (AE-R5); assay type: cell-based, HIV; conditions: TZM-bl cells, luciferase, 48 h; clade-tropism AE-R5; read-out: EC50, viral strain VI1888 (CRF01)
Protocol: as §3, §4

[10] = system: VI820 viral strain (A-X4R5); assay type: cell-based, HIV; conditions: TZM-bl cells, luciferase, 48 h; clade-tropism A-X4R5
Protocol: as §3, §4

[11] = system: SHIV162p3 viral strain (B-R5); assay type: cell-based; conditions: TZM-bl cells, luciferase, 48 h; clade-tropism B-R5
Protocol: as §3, §4

CC(C)C[C@@H]1NC(=O)CNC(=O)[C@H](CC(C)C)NC(=O)[C@H](CO)NC(=O)[C@H](CCCNC(=N)N)NC(=O)[C@@H]2CSSC[C@@H](C(=O)N[C@H](C(N)=O)C(C)C)NC(=O)[C@H](C)NC(=O)[C@@H]3CSSC[C@H](NC(=O)[C@H](CCCCN)NC(=O)[C@H](Cc4c[nH]cn4)NC(=O)[C@H](CC(C)C)NC(=O)[C@H](CC(N)=O)NC(=O)CCSSC[C@H](NC(=O)[C@H](CCCNC(=N)N)NC(=O)CNC(=O)[C@H](CC(C)C)NC1=O)C(=O)N[C@@H](C)C(=O)N1CCC[C@@H]1C(=O)N[C@@H]([C@@H](C)O)C(=O)N[C@@H](Cc1ccc(OCC4CCCCC4)cc1)C(=O)N3)C(=O)N[C@@H](CCC(N)=O)C(=O)N[C@@H](CC(C)C)C(=O)N[C@@H](CCCNC(=N)N)C(=O)N2 [mCD4.3]
CC50 at 48 h [1]: 15.5 µM

CC(C)C[C@@H]1NC(=O)CNC(=O)[C@H](CC(C)C)NC(=O)[C@H](CO)NC(=O)[C@H](CCCNC(=N)N)NC(=O)[C@@H]2CSSC[C@@H](C(=O)N[C@H](C(N)=O)C(C)C)NC(=O)[C@H](C)NC(=O)[C@@H]3CSSC[C@H](NC(=O)[C@H](CCCCNC(=O)CCOCCOCCNC(=O)CCN4C(=O)CC(SCCC(=O)NCCCC(=O)N[C@@H](CO)C(=O)N[C@@H](Cc5ccc(OS(=O)(=O)O)cc5)C(=O)N[C@@H](CC(=O)O)C(=O)N[C@@H](Cc5ccc(OS(=O)(=O)O)cc5)C(=O)N[C@@H](CO)C(=O)N[C@@H](Cc5ccc(OS(=O)(=O)O)cc5)C(=O)N[C@@H](CC(=O)O)C(=O)N[C@@H](Cc5ccc(OS(=O)(=O)O)cc5)C(=O)N[C@@H](CO)C(=O)N[C@@H](Cc5ccc(OS(=O)(=O)O)cc5)C(=O)N[C@@H](CC(=O)O)C(=O)N[C@@H](Cc5ccc(OS(=O)(=O)O)cc5)C(=O)N[C@@H](CO)C(=O)O)C4=O)NC(=O)[C@H](Cc4c[nH]cn4)NC(=O)[C@H](CC(C)C)NC(=O)[C@H](CC(N)=O)NC(=O)CCSSC[C@H](NC(=O)[C@H](CCCNC(=N)N)NC(=O)CNC(=O)[C@H](CC(C)C)NC1=O)C(=O)N[C@@H](C)C(=O)N1CCC[C@@H]1C(=O)N[C@@H]([C@@H](C)O)C(=O)N[C@@H](Cc1ccc(OCC4CCCCC4)cc1)C(=O)N3)C(=O)N[C@@H](CCC(N)=O)C(=O)N[C@@H](CC(C)C)C(=O)N[C@@H](CCCNC(=N)N)C(=O)N2 (stereo partly shown) [mCD4.3-PS1]
block of cell-cell virus transmission [2]: able to block cell-cell virus transmission | block of cell-cell virus transmission [3]: able to block cell-cell virus transmission | CC50 at 48 h [1]: > 50 µM

CC(C)C[C@@H]1NC(=O)CNC(=O)[C@H](CC(C)C)NC(=O)[C@H](CO)NC(=O)[C@H](CCCCNC(=O)CCOCCOCCNC(=O)CCN2C(=O)CC(SCCC(=O)NCCCC(=O)N[C@@H](CO)C(=O)N[C@@H](Cc3ccc(OS(=O)(=O)O)cc3)C(=O)N[C@@H](CC(=O)O)C(=O)N[C@@H](Cc3ccc(OS(=O)(=O)O)cc3)C(=O)N[C@@H](CO)C(=O)N[C@@H](Cc3ccc(OS(=O)(=O)O)cc3)C(=O)N[C@@H](CC(=O)O)C(=O)N[C@@H](Cc3ccc(OS(=O)(=O)O)cc3)C(=O)N[C@@H](CO)C(=O)N[C@@H](Cc3ccc(OS(=O)(=O)O)cc3)C(=O)N[C@@H](CC(=O)O)C(=O)N[C@@H](Cc3ccc(OS(=O)(=O)O)cc3)C(=O)N[C@@H](CO)C(=O)O)C2=O)NC(=O)[C@@H]2CSSC[C@@H](C(=O)N[C@H](C(N)=O)C(C)C)NC(=O)[C@H](C)NC(=O)[C@@H]3CSSC[C@H](NC(=O)[C@H](Cc4ccccc4)NC(=O)[C@H](Cc4c[nH]cn4)NC(=O)[C@H](CC(C)C)NC(=O)[C@H](CC(N)=O)NC(=O)CCSSC[C@H](NC(=O)[C@H](CCCNC(=N)N)NC(=O)CNC(=O)[C@H](CC(C)C)NC1=O)C(=O)N[C@@H](C)C(=O)N1CCC[C@@H]1C(=O)N[C@@H]([C@@H](C)O)C(=O)N[C@@H](Cc1ccc(OCC4CCCCC4)cc1)C(=O)N3)C(=O)N[C@@H](CCC(N)=O)C(=O)N[C@@H](CC(C)C)C(=O)N[C@@H](CCCNC(=N)N)C(=O)N2 (stereo partly shown) [M48U1-PS1]
pEC50 (IIIB viral strain (B-X4)): 10.70 | pEC50 [4]: 9.22 | pEC50 (MN viral strain (B-X4)): 9.92 | pEC50 [5]: 7.82 | pEC50 [6]: 10.30 | pEC50 [7]: 8.96 | pEC50 [8]: 8.66 | pEC50 (Bal viral strain (B-R5)): 9.89 | pEC50 [9]: 5.97 | pEC50 [10]: 10.00 | pEC50 [11]: 8.47 | CC50 at 48 h [1]: > 50 µM

CC(C)C[C@@H]1NC(=O)CNC(=O)[C@H](CC(C)C)NC(=O)[C@H](CO)NC(=O)[C@H](CO)NC(=O)[C@@H]2CSSC[C@@H](C(=O)N[C@H](C(N)=O)C(C)C)NC(=O)[C@H](C)NC(=O)[C@@H]3CSSC[C@H](NC(=O)[C@H](CCCCN)NC(=O)[C@H](Cc4c[nH]cn4)NC(=O)[C@H](CC(C)C)NC(=O)[C@H](CC(N)=O)NC(=O)CCSSC[C@H](NC(=O)[C@H](CCCNC(=N)N)NC(=O)CNC(=O)[C@H](CC(C)C)NC1=O)C(=O)N[C@@H](C)C(=O)N1CCC[C@@H]1C(=O)N[C@@H]([C@@H](C)O)C(=O)N[C@@H](Cc1ccc(OCC4CCCCC4)cc1)C(=O)N3)C(=O)N[C@@H](CCC(N)=O)C(=O)N[C@@H](CC(C)C)C(=O)N[C@@H](CCCNC(=N)N)C(=O)N2 [mCD4.2]
CC50 at 48 h [1]: 24 µM

CC(C)C[C@@H]1NC(=O)CNC(=O)[C@H](CC(C)C)NC(=O)[C@H](CO)NC(=O)[C@H](CCCCN)NC(=O)[C@@H]2CSSC[C@@H](C(=O)N[C@H](C(N)=O)C(C)C)NC(=O)[C@H](C)NC(=O)[C@@H]3CSSC[C@H](NC(=O)[C@H](Cc4ccccc4)NC(=O)[C@H](Cc4cnc[nH]4)NC(=O)[C@H](CC(C)C)NC(=O)[C@H](CC(N)=O)NC(=O)CCSSC[C@H](NC(=O)[C@H](CCCNC(=N)N)NC(=O)CNC(=O)[C@H](CC(C)C)NC1=O)C(=O)N[C@@H](C)C(=O)N1CCC[C@@H]1C(=O)N[C@@H]([C@@H](C)O)C(=O)N[C@@H](Cc1ccc(OCC4CCCCC4)cc1)C(=O)N3)C(=O)N[C@@H](CCC(N)=O)C(=O)N[C@@H](CC(C)C)C(=O)N[C@@H](CCCNC(=N)N)C(=O)N2 [M48U1]
CC50 at 48 h [1]: 12.9 µM

CC(C)C[C@@H]1NC(=O)CNC(=O)[C@H](CC(C)C)NC(=O)[C@H](CO)NC(=O)[C@H](CO)NC(=O)[C@@H]2CSSC[C@@H](C(=O)N[C@H](C(N)=O)C(C)C)NC(=O)[C@H](C)NC(=O)[C@@H]3CSSC[C@H](NC(=O)[C@H](CCCCN)NC(=O)[C@H](Cc4c[nH]cn4)NC(=O)[C@H](CC(C)C)NC(=O)[C@H](CC(N)=O)NC(=O)CCSSC[C@H](NC(=O)[C@H](CCCNC(=N)N)NC(=O)CNC(=O)[C@H](CC(C)C)NC1=O)C(=O)N[C@@H](C)C(=O)NCC(=O)N[C@@H](CO)C(=O)N[C@@H](Cc1ccc(-c4ccccc4)cc1)C(=O)N3)C(=O)N[C@@H](CCC(N)=O)C(=O)N[C@@H](CC(C)C)C(=O)N[C@@H](CCCNC(=N)N)C(=O)N2 [mCD4.1]
CC50 at 48 h [1]: 45.5 µM

pEC50: −log10 of the molar value.
